This series relates to T. cruzi intracellular amastigotes. The series is described as follows: Image-based assay of the number of T. cruzi infected cells (intracellular amastigotes in 3T3 host cells). Format: cell-based, Trypanosoma cruzi. Conditions: IC50 24 h vs 48 h. The protocol: Parasites and host cells were maintained as outlined previously. Briefly, host 3T3 fibroblasts (ATCC, CCL-92) were grown in RPMI medium (Thermo Fisher Scientific, USA) with no phenol red, supplemented with 10% FBS (Thermo Fisher Scientific, USA) and incubated at 37°C in 5% CO2. Host cells were harvested at 70% confluency and were split every 2–3 days in 175 cm^2 flasks. 3T3 cells were cultured up to passage 7 as contact inhibition was reduced or lost at higher passages. Prior to infection with T. cruzi trypomastigotes, host cells were seeded at 1.2 x 10^6 cells in 75 cm^2 or 4 x 10^5 cells in 25 cm^2 flasks and grown for 24 hours before parasite addition. […]
The activity of the nucleoside analogues against T. cruzi intracellular amastigotes following 24, 48 hours exposure and compound wash off, was determined using image-based techniques as previously described. […]
IC50 values for inhibitory activity of both the nucleoside analogues tested as DNA probes and known inhibitors tested to determine their effect on replication of T. cruzi were calculated in GraphPad Prism 5, using sigmoidal dose response with variable slope. […] The p-value for difference in the % activity at Emax concentrations for compounds with known activity (EdU identified parasites, compared to Hoechst identified parasites) against T. cruzi was determined using GraphPad Prism 5, using an unpaired student’s t-test. […]

`C#Cc1cn([C@H]2C[C@H](O)[C@@H](CO)O2)c(=O)nc1N` [EdC, 5-ethynyl-2′-deoxy-cytidine]: the “fold increase in activity against T. cruzi, 48 vs 24 hours incubation” value was determined as 1.8 fold.
